The source of these data is PubChem BioAssay AID1159524 (National Center for Advancing Translational Sciences (NCATS), 2015).

This is a selection; strong and weak results do not stand in their true shares. Results filed as inconclusive are left out. Calls of active or inactive are those of the source. Calls come from the whole dose curve; tested in HEK293T cells.
% is set by controls: 0 for no effect and ±100 for the full control effect.

The nature of this assay: High Throughput Screening for Foot and Mouth Disease Virus Antivirals. Note: read-out not given here; nearly all actives have a fitted effect of over 45% in size. The following applies: FMDV antiviral cell-based qHTS; at 57.9 µM (top of the series). In general terms: qHTS replaces the single test concentration by a dilution series.
Consider `NC(=O)Nc1ccc([As](=O)(O)O)cc1`, for which the activity change, negative = inhibition is inactive: -21.3%.
